From PMC5521740

Molecular target: His-CRP (cAMP receptor protein) (Klebsiella pneumoniae NTUH-K2044) (UniProt A0ACD7U7W2)
Assay: EMSA
Details: cAMP (20 mM); 5x binding buffer ([…], room temperature, 20 min ([…]) or 30 min ([…]; recombinant protein; residues 1-210; protein details: His; label: 5'-32P; probe letters rebuilt from the primers and the genome

Question: Does “ATACCGGCAGCTGCGAGTAATTTTACGTTTTTCATGGTGTTTGTCCTTTTAACTTTTATGGTGGAAAGCATGTTTGCTTTCGATGGACTTATAATAAGTCTGCTAACTATAACGCGCGTGGCAAAAAGTGCGATTTAGATCACATTTTTATGGCGGTTTGATGGCGTAAACATGATCGTTTATCTATTTTTTAATTTAAAAACAATCAATTAATGATTTGCTTCTGAAAGGGGGTATCACATGGGCTGCCCTTGTTCAGGGAGAGGAATGCGCCTCATTCATGCTTTCACCATTCGTTGTGTGAATGGTTTGGTGCTGTTTTCACCACCGCAAAGGCAGATTCAGACTTATCGCGATGGCCTTCCGAGGGCTTTTTCTGCATGCTGTTGCGGTCACTTTCTCTCGCTCTGGCGTTAGGCTTGCTGCGCTGTAAACAACCACCCTCGCGTTTTCATCTATCAATGACTGTTTATTAATAGTCGATGGTTATCTGTTATATAACTTAATGAAACGTGAACAAATGTATATTTGTCGGCGAATAAATAGCATTCTTTGACGCCGATAGCACCAGCGAACTTATATTTTTAGGTTCGTTACCTGACGCCTTAAATATTGCGGCTCCCGGTCAGTCGAAGATTCTATTAGCAGTGGCATAAATCAGCATCG (double strand) [KP1_4563 promoter EMSA fragment]” bind?
Answer: Result: binds
